In one experiment the test system is M. marinum. Briefly: MIClux in liquid using bioluminescence, M. marinum strains.
In another experiment the test system is M. ulcerans. As to the kind of experiment: MIClux in liquid using bioluminescence, M. ulcerans strains. The class given is cell-based, Mycobacterium ulcerans.
A further experiment relates to M. smegmatis. As to the kind of experiment: MIC by microplate Alamar blue assay, M. smegmatis wild-type and recombinant strains.

As for `COc1ccn2nc(C)c(C(=O)NCc3ccc(N4CCC(c5ccc(OC(F)(F)F)cc5)CC4)cc3)c2c1` [TB47], the MIClux in the experiment on M. marinum (M. marinum Wild-type (Autoluminescent strain)) was 0.001 to 0.008 µg/mL; with M. marinum (M. marinum Wild-type:: qcrB^THR323ALA, over-expression), above 128 µg/mL; in the experiment with M. marinum (M. marinum Wild-type:: qcrB^WT, over-expression of wild-type qcrB) it was 32 to 64 µg/mL; in the experiment with M. ulcerans (M. ulcerans Wild-type (AlMu 1059)), 0.0016 µg/mL; with M. ulcerans (M. ulcerans Wild-type:: qcrB^THR323PRO, over-expression), 0.10 to 0.40 µg/mL; with M. ulcerans (M. ulcerans Wild-type:: qcrB^WT, over-expression of wild-type qcrB) it was 0.05 to 0.10 µg/mL. The MIClux with M. ulcerans (M. ulcerans Wild-type:: vector (empty plasmid)) was in the range of 0.0016 to 0.0031 µg/mL. Also, the results for the MIC with M. smegmatis (MsmΔcydAB::cydAB^Mtb) and in the experiment on M. smegmatis (MsmΔcydAB::cydAB^Mu) were 37.5 mg/L and 6.5 mg/L, respectively.
